Here are results for one molecule from PMC9400459 (Science (New York, N.y.), 2022).

The assay deals with WIV-1 receptor binding domain (Bat SARS-like coronavirus WIV1, UniProt U5WI05, strain). As to the kind of experiment: ELISA; mAb on sarbecovirus RBDs; EC50 of at least two independent experiments. The note with it: both partners purified.

B1: S2K146 human monoclonal antibody (antibody, V domains shown)
VH: QVQLVESGGVVVQPGGSLRLSCAASGFTFHDHTMHWVRQAPGKGLEWVSLITWNGGTIHYSDSVKGRFTISRDNSKNSLYLQMNSLRTEDTALYYCAKDLGRGGWYLPSDAWGQGTLVTVSS
VL: not shown
Turning to B1, the binding result is reported as “binds”.
